Results of unrelated studies side by side (data: NIAID ChemDB).

Common to all: growth or infection tests; agent: HIV-1

Lines come from different laboratories, so protocols vary. ECn: concentration that inhibits the pathogen or its effect by n%. An empty or dashed field is not shown.

compound	changes	cells	strain or isolate	measure	method	setting	value
N#Cc1cc(Cl)cc(Oc2c(Br)ccc(Cn3ccc(=O)[nH]c3=O)c2F)c1	Wild type	MT-4		EC50	MTT		0.001 µM
Cc1cn([C@H]2C[C@H](N=[N+]=[N-])[C@@H](CO)O2)c(=O)[nH]c1=O		MT-4	Y188L (subtype B)	EC50	MTT		0.0007 µg/mL
Cc1nc(-c2nc3ccccn3c2C)c(C)c(-c2ccc(Cl)cc2)c1[C@H](OC(C)(C)C)C(=O)O		C8166	NL4-3	EC50	luciferase		5.9 nM
O=c1[nH]c(=O)n([C@@H]2O[C@@H](CO)C[C@H]2F)cc1F		PBM		EC50			>100 µM
Cc1cn([C@H]2C[C@H](N=[N+]=[N-])[C@@H](COP(=O)(Nc3cc(C(=O)NCCC(=N)N)n(C)c3)OC3CCCCC3)O2)c(=O)[nH]c1=O		MT-4		EC50	p24 / antigen		0.021 µM
Cc1cn([C@@H]2O[C@H](COCc3ccccc3)C3(OS(=O)(=O)C=C3N)[C@H]2O[Si](C)(C)C(C)(C)C)c(=O)[nH]c1=O		CEM	IIIB	EC50	syncytia		>6 µM
Cc1cn([C@H]2C[C@H](N=[N+]=[N-])[C@@H](COP(=O)(Nc3cc(C(=O)Nc4cc(C(=O)Nc5cc(C(=O)NCCC#N)n(C)c5)n(C)c4)n(C)c3)OC3CCCCC3)O2)c(=O)[nH]c1=O		CEM/TK-		EC50	syncytia		2.19 µM
O=c1[nH]c2c(c(=O)[nH]1)C(c1ccc(I)cc1)c1c([nH]c(=O)[nH]c1=O)O2		MT-4	IIIB	EC50	cytopathic effect		>276 µM
CCC(c1cccc(NS(=O)(=O)c2ccc(C#N)cn2)c1)c1c(O)c2c(oc1=O)CCCC2		H9	IIIB	EC50	p24		>3 µM
Cc1ccccc1Cn1cc(CSc2nc(Cc3cccc4ccccc34)c(C)c(=O)[nH]2)nn1			IIIB	EC50	MTT		>24.01 µM
O=c1ccn([C@@H]2O[C@@H](CO)C[C@H]2F)c(=O)[nH]1		PBM		EC50			>100 µM
Nc1ncnc2c1ncn2CCOCP(=O)(O)O		MT-4	IIIB	EC50	MTT		>10 µM
O=c1[nH]cnc2c1ncn2[C@@H]1O[C@@H](CO)C[C@@H]1F		PBM		EC50			>100 µM
Cc1ccccc1C(=O)c1cc(Cl)ccc1Oc1nc(Nc2ccc(C#N)cc2)ncc1C		MT-4	IIIB	EC50	MTT / absorbance		>1.09 µM
Cc1cn([C@H]2C[C@H](N=[N+]=[N-])[C@@H](CO)O2)c(=O)[nH]c1=O		MT-4	SCV 4005	EC50	antigen		0.013 µM
O=C(NC(=S)Nc1ccc(Br)cn1)c1ccccc1[N+](=O)[O-]		TZM-bl	NL4-3	EC50	p24 / luciferase	pseudotyped	0.48 µM
COC(=O)CNC(=O)COc1ccc2ccccc2c1		MT-4	IIIB	EC50	cytopathic effect / MTT		>100 µg/mL
CC(C)=CCN1c2cc(Cl)cc3[nH]c(=S)n(c23)C[C@@H]1C	RT-K70R K103N	MT-4		EC50			<1.5 µM
C[C@H](NC(=O)COc1ccc2ccccc2c1)C(=O)NN		MT-4	IIIB	EC50	cytopathic effect / MTT		>46 µg/mL
Cc1cn([C@@H]2O[C@@H](COC(=O)c3ccccc3)C3(OS(=O)(=O)C=C3N)C2O[Si](C)(C)C(C)(C)C)c(=O)[nH]c1=O		MT-4	IIIB	EC50	cytopathic effect / trypan blue		>100 µg/mL
Cc1ccc(S(=O)(=O)OC[C@H]2O[C@@H](n3cc(C)c(=O)n(C)c3=O)[C@H](O[Si](C)(C)C(C)(C)C)C23OS(=O)(=O)C=C3N)cc1		CEM	IIIB	EC50	syncytia		>6.2 µM
NC(=O)c1cccc(N=O)c1		PBL	LAV	EC50	ELISA		<1 µM
Cc1cn([C@@H]2O[C@H](CO[Si](C)(C)C(C)(C)C)C3(OS(=O)(=O)C=C3N)[C@H]2O)c(=O)[nH]c1=O		CEM	IIIB	EC50	syncytia		>40 µM
C=C(C)[C@]12C[C@@H](COC(=O)c3ccccc3)[C@@]34OC5(O[C@@H]1C3[C@@H]1O[C@]1(CO)[C@@H](O)[C@@]1(O)C4C([C@H](C)CCCCCC[C@H]5O)[C@H](C)[C@@H]1OC(=O)c1ccccc1)O2		MT-4	NL4-3	EC50	luciferase		>0.00013 µM
O=c1[nH]c(SCc2cn(Cc3ccc(F)cc3)nn2)nc(Cc2c(Cl)cccc2Cl)c1I			RES056	EC50	MTT		>92.05 µM
NNC(=O)CNC(=O)COc1ccc2ccccc2c1		MT-4	IIIB	EC50	cytopathic effect / MTT		>100 µg/mL
CC(C)CN(C[C@@H](O)[C@H](Cc1ccccc1)NC(=O)O[C@H]1CCOC1)S(=O)(=O)c1ccc(N)cc1		MT-4	NL4-3	EC50	cytopathic effect / MTT		0.0286 µM
Cc1cn([C@@H]2O[C@H](CCC(C)C)C3(OS(=O)(=O)C=C3N)[C@H]2OC(=O)c2ccccc2)c(=O)[nH]c1=O		CEM	IIIB	EC50	syncytia		>20 µg/mL
Nc1nc2c(ncn2[C@H]2O[C@@H](CO)C[C@@H]2F)c(=O)[nH]1		PBM		EC50			>100 µM
Nc1nc(NC2CC2)c2ncn([C@H]3C=C[C@@H](CO)C3)c2n1		MT-4	NL4-3	EC50	cytopathic effect / MTT		1.41 µM
N#Cc1cc(Cl)cc(Oc2c(Br)ccc(Cc3ccc[nH]c3=O)c2F)c1	NNRTI-resistant (RT K103N/Y181C)	MT-4	K103N/Y181C	EC50	MTT		>0.1 µM
CCCCCc1ccc(-c2cc3cn(CC=C(CO)CO)c(=O)nc3o2)cc1		PBMC	LAI	EC90	RT activity		13.07 µM
COC(=O)[C@H](CC(C)C)NC(=O)COc1ccc2ccccc2c1		MT-4	IIIB	EC50	cytopathic effect / MTT		>100 µg/mL
N#Cc1cc(Cl)cc(Oc2c(Br)ccc(Cn3cn[nH]c3=O)c2F)c1	Wild type	MT-4		EC50	MTT		0.014 µM
CCC(c1cccc(NS(=O)(=O)c2ccc(C#N)cn2)c1)c1c(O)c2c(oc1=O)CCCCCC2		H9	IIIB	EC50	p24		2.6 µM
Cc1cn([C@H]2C[C@H](N=[N+]=[N-])[C@@H](CO)O2)c(=O)[nH]c1=O		MT-4		EC50			0.002 µg/mL
Nc1ccn([C@H]2CC[C@@H](CO)O2)c(=O)n1		MT-2	RF	EC50	cytopathic effect / MTT		~0.1 µg/mL
Cc1nc2ccccc2n1C1C[C@H]2CC[C@@H](C1)N2CCC(C)(CN(C)S(=O)(=O)c1ccccc1)c1ccccc1		HOS-CD4-CCR5		EC50	luciferase		<0.01 µM
CCC(c1cccc(NS(=O)(=O)c2ccc(C#N)cn2)c1)c1c(O)c2c(oc1=O)CCCCCCCC2		H9	IIIB	EC50	p24		>3 µM
CNc1ncnc2c1ncn2[C@H]1O[C@@H](CO)C[C@H]1F		PBM		EC50			>100 µM
Cc1cn([C@@H]2O[C@H](COCc3ccccc3)C3(OS(=O)(=O)C=C3NC(=O)c3ccccc3)[C@H]2OC(=O)c2ccccc2)c(=O)[nH]c1=O		CEM	IIIB	EC50	syncytia		≥40 µM
Cn1cc(NC(=O)c2cc(NC(=O)c3cc([N+](=O)[O-])cn3C)cn2C)cc1C(=O)NCCC(=N)N		CEM		EC50	syncytia		>100 µM
O=c1[nH]c2c(c(=O)[nH]1)C(c1ccccc1)c1c([nH]c(=O)[nH]c1=O)O2		MT-4	IIIB	EC50	cytopathic effect		170 µM
CC(=O)O[C@@H]1[C@H](n2cc(C)c(=O)[nH]c2=O)O[C@@H](COC(=O)c2ccccc2)C12OS(=O)(=O)C=C2N		MT-4	IIIB	EC50	cytopathic effect / trypan blue		35 µg/mL
O=c1[nH]c(=S)[nH]c2c1C(c1ccc(Cl)cc1)c1c([nH]c(=S)[nH]c1=O)O2		MT-4	IIIB	EC50	cytopathic effect		56.8 µM
N#Cc1cc(Cl)cc(Oc2c(Br)ccc(Cn3c(=O)[nH]c4ccccc43)c2F)c1	NNRTI-resistant (RT K103N/Y181C)	MT-4	K103N/Y181C	EC50	MTT		0.046 µM
Cc1cn([C@@H]2O[C@H](CO[Si](C(C)(C)C)(C(C)(C)C)C(C)(C)C)C3(OS(=O)(=O)C=C3N)[C@H]2O[Si](C)(C)C(C)(C)C)c(=O)n(C)c1=O		CEM	IIIB	EC50	syncytia		>12 µM
CC(=O)O[C@@H]1[C@H](OC(=O)CC(C)C)c2c(ccc3ccc(=O)oc23)OC1(C)C		PBMC	IIIB	EC50	p24		3.9 µM
Cc1cn([C@H]2C=C[C@@H](COP(=O)(Nc3cc(C(=O)Nc4cc(C(=O)NCCC(=N)N)n(C)c4)n(C)c3)OC(C)C)O2)c(=O)[nH]c1=O		CEM		EC50	syncytia		1.89 µM
CC(C)(O)[C@H]1Cc2cc3ccc(=O)oc3cc2O1		H9	IIIB	EC50	p24		>203.9 µM
CC(C)(C)C(=O)SCCOP(=O)(COCCn1cnc2c(N)ncnc21)OCCSC(=O)C(C)(C)C		MT-4	IIIB	EC50	MTT		0.81 µM
Cc1cn([C@H]2C[C@H](N=[N+]=[N-])[C@@H](CO)O2)c(=O)[nH]c1=O		PBMC	LAI	EC50	RT activity		0.016 µM
CCC(C1=C(O)C2CCCCCCC2OC1=O)c1cccc(NS(=O)(=O)c2ccc(C#N)cn2)c1		H9	IIIB	EC50	p24		2.9 µM
Cc1cn([C@H]2C=C[C@@H](CO)O2)c(=O)[nH]c1=O		MT-4		EC50	p24 / antigen		0.27 µM
Cc1nc(C(=O)N[C@@H](C)C2CCCCC2)c(C)c(-c2ccc(Cl)cc2)c1[C@H](OC(C)(C)C)C(=O)O		C8166	NL4-3	EC50	luciferase		6.9 nM
Cc1ccnc2c1NC(=O)c1cccnc1N2C1CC1		MT-4	NL4-3	EC50	cytopathic effect / MTT		0.028 µM
Cc1cn([C@H]2C[C@H](N=[N+]=[N-])[C@@H](CO)O2)c(=O)[nH]c1=O		CEM		EC50	syncytia		0.031 µM
N#Cc1cc(Cl)cc(Oc2c(Br)ccc(Cn3c(=O)[nH]c4ncccc43)c2F)c1	Wild type	MT-4		EC50	MTT		0.003 µM
C[C@H](Cn1cnc2c(N)ncnc21)OCP(=O)(O)O		MT-4	NL4-3	EC50	cytopathic effect / MTT		1.7 µM
Cc1nc(C(=O)N[C@@H](C)c2ccccc2)c(C)c(-c2ccc(Cl)cc2)c1[C@H](OC(C)(C)C)C(=O)O		C8166	NL4-3	EC50	luciferase		22 nM
CC(=O)c1cn(CC=C(CO)CO)c(=O)[nH]c1=O		PBMC	LAI	EC50	RT activity		25.1 µM
Cc1cn([C@H]2C=C[C@@H](COP(=O)(Nc3cc(C(=O)NCCC(=N)N)n(C)c3)OC(C)C)O2)c(=O)[nH]c1=O		CEM		EC50	syncytia		1.87 µM
COC(=O)N[C@H](C(=O)N[C@@H](Cc1ccccc1)[C@@H](O)CN(Cc1ccc(-c2ccccn2)cc1)NC(=O)[C@@H](NC(=O)OC)C(C)(C)C)C(C)(C)C		PBMC	ERS104pre	EC50	p24 / luciferase		0.0026 µg/mL
CC(=N)CCNC(=O)c1cc(NC(=O)c2cc(NC(=O)c3cc(NP(=O)(OC[C@@H]4C=C[C@H](n5cc(C)c(=O)[nH]c5=O)O4)OC4CCCCC4)cn3C)cn2C)cn1C		MT-4		EC50	p24 / antigen		0.17 µM
CN1C(=O)NC(=O)C1Cc1ccc(Br)c(Oc2cc(Cl)cc(C#N)c2)c1F	Wild type	MT-4		EC50	MTT		0.004 µM
Cc1cn([C@H]2C=C[C@@H](CO)O2)c(=O)[nH]c1=O		MT-4	NL4-3	EC50	cytopathic effect / MTT		0.32 µM
Cc1n[nH]c(=O)n1Cc1ccc(Br)c(Oc2cc(Cl)cc(C#N)c2)c1F	Wild type	MT-4		EC50	MTT		0.011 µM
Cc1cn([C@@H]2O[C@H](CO[Si](c3ccccc3)(c3ccccc3)C(C)(C)C)C3(OS(=O)(=O)C=C3N)[C@H]2O[Si](c2ccccc2)(c2ccccc2)C(C)(C)C)c(=O)[nH]c1=O		MT-4	IIIB	EC50	syncytia		>150 µM
Nc1ccn([C@H]2CC[C@@H](CO)O2)c(=O)n1		MOLT-4/8	RF	EC50	p24		0.35 µM
COc1ccc(Cn2cc(CSc3nc(Cc4cccc5ccccc45)cc(=O)[nH]3)nn2)cc1			IIIB	EC50	MTT		>68.53 µM
CCCCCCCCc1cc2cn(CC=C(CO)CO)c(=O)nc2o1		PBMC	LAI	EC50	RT activity		25.1 µM
COc1ccc(S(=O)(=O)N(CC(C)C)C[C@@H](O)[C@H](Cc2ccccc2)NC(=O)O[C@H]2CO[C@H]3OCC[C@H]32)cc1		H9	IIIB	EC50	p24		0.0007 µM
Cc1cc(C#N)cc(C)c1Oc1cc(Nc2ccc(C#N)cc2)c(N)cc1N		MT-2	RF	EC50	p24 / ELISA		73.3 µM
COC(=O)[C@H](C)NC(=O)COc1ccc2ccccc2c1		MT-4	IIIB	EC50	cytopathic effect / MTT		>59 µg/mL
CNC(=O)c1cc(F)ccc1CNC(=O)c1nc(N2CCCCS2(=O)=O)c2cccnc2c1O		MT-4	IIIB	EC50	p24		<0.015 µM
CCCCCCCCCCCCSCC(COP(=O)([O-])OCC[N+](C)(C)C)OCCCCCCCCC(=O)OCC(=O)OC[C@H]1O[C@@H](n2cc(C)c(=O)[nH]c2=O)C[C@@H]1N=[N+]=[N-]		CEM + CEM-SS	R5X4 WT	EC50	plaque count		0.05 µM
CC(=O)OC[C@H]1O[C@@H](OC(C)(C)[C@H]2Cc3cc4ccc(=O)oc4cc3O2)[C@H](OC(C)=O)[C@@H](OC(C)=O)[C@@H]1OC(C)=O		H9	IIIB	EC50	p24		>86.8 µM
CCCCCCCSc1nsc(NC(=O)Nc2ccccc2)n1		MT-4	NL4-3	EC50	cytopathic effect		14.7 µM
CC(=O)SCCOP(=O)(OCCSC(C)=O)OC[C@H]1O[C@@H](n2cc(C)c(=O)[nH]c2=O)C[C@@H]1N=[N+]=[N-]		MOLT-4/8	LAV1-BRU	EC50	p24		0.038 µM
O=c1cc(Cc2c(Cl)cccc2Cl)nc(SCc2cn(Cc3ccccc3)nn2)[nH]1			IIIB	EC50	MTT		>273 µM